Measured values from several laboratories, pooled; numbers as filed in NIAID ChemDB.

All rows: tests in culture

Blank or dashed fields: not listed here. Neighbouring rows are from separate reports. A number after MIC or MFC names an inhibition level or a share of isolates. Inhibition is in % at the dose shown (toxicity tests: loss of growth or viability). ECn: concentration that inhibits the pathogen or its effect by n%.

SMILES | cell line | agent | strain or isolate | tested at | read-out | method | result
C=CCc1ccc(O)c(OC)c1 | - | Candida tropicalis | 2442 | - | MIC90 | turbidity | 480 µg/mL
CC(=O)N[C@H]1[C@H]([C@H](O)[C@H](O)CO)OC(C(=O)O)=C[C@@H]1N=C(N)N | MDCK | Influenza A virus | Influenza A/Shandong/09/93 (H3N2) | - | EC50 | - | 0.5 µM
N#Cc1cnn(CCCc2ccccc2)c1/N=c1\ssnc1Cl | - | Saccharomyces cerevisiae | ATCC26785 | - | MIC | - | 25 µg/mL
Cc1c(NCCCO)c(F)cc2c(=O)c(C(=O)O)cn(-c3cc(N)c(F)cc3F)c12 | - | Staphylococcus aureus | 27 isolates (methicillin-resistant) | - | MIC50 | - | 0.015 µg/mL
Cc1nc(NCCCCNc2ccnc3cc(Cl)ccc23)nc(-c2ccccc2[N+](=O)[O-])c1C(=O)OC(C)C | - | Cryptococcus neoformans | WP | - | MIC99 | - | 8 µg/mL
N#Cc1cnn(Cc2ccccc2)c1/N=c1\ssnc1Cl | - | Saccharomyces cerevisiae | ATCC26785 | - | MIC | - | 50 µg/mL
CO/N=C1\CN(c2nc3c(cc2F)c(=O)c(C(=O)O)cn3C2CC2)CC1CN | - | Streptococcus pneumoniae | 21 isolates ciprofloxacin-resistant | - | MIC90 | - | 0.5 µg/mL
OC[C@H]1O[C@@H](n2cnc3c(SCc4ccc(OC(F)(F)F)cc4)ncnc32)[C@H](O)[C@@H]1O | - | Toxoplasma gondii | RH (WILD TYPE) | 5 µM | inhibition | - | 6.9%
Cc1nc2cc(Cl)ccn2c1C(=O)NCc1ccc(N2CCC(c3ccc(OC(F)(F)F)cc3)CC2)c(F)c1.Cl | - | Mycobacterium avium | - | 0.51 µM | inhibition | fluorescence | 85%
Nc1ncnc2c1ncn2[C@@H]1C[C@H](NC=O)[C@@H](O)[C@H]1O | HFF | West Nile virus | - | - | EC50 | - | >100 µg/mL
Nc1ncnc2c1ncn2[C@@H]1CC[C@@H](O)[C@H]1O | CV-1 | Measles virus | Edmonston | - | EC50 | neutral red | >64 µg/mL
CCc1nc2ccc(Cl)cn2c1C(=O)NCc1ccc(C2CCN(c3ccc(OCC4CC4)nc3)CC2)c(F)c1.Cl | - | Mycobacterium avium | - | 0.046 µM | inhibition | fluorescence | 85%
CCc1cn([C@@H]2O[C@H](CO)[C@@H](O)[C@@H]2O)c(=O)[nH]c1=O | HELF | Varicella zoster virus | Asahikawa | 1000 µg/mL | inhibition | plaque count | 96%
CC1(C(=O)O)CCC2(C)CCC3(C)C(=CC(=O)C4C5(C)CCC(OC(=O)C6CCCCC6C(=O)O)C(C)(C)C5CCC43C)C2C1 | - | Adenovirus | TYPE 5 | - | EC99 | virus yield | 300 µM
N#Cc1ncn(CCc2ccc(Cl)cc2Cl)c1/N=c1\ssnc1Cl | - | Saccharomyces cerevisiae | ATCC26785 | - | MIC | - | 25 µg/mL
CCCC(CCC)C(NC(C)=O)C1CC(C(=O)O)CC1N=C(N)N | MDCK | Influenza A virus | Influenza A/Victoria/3/75 (H3N2) | - | EC50 | - | 0.06 µM
CCC(CC)O[C@@H]1C=C(C(=O)O)C[C@H](N)[C@H]1NC(C)=O | MDCK | Influenza A virus | H1N1 A/TEXAS/36/91 | - | EC50 | visual reading | 0.16 µM
OC[C@H]1O[C@@H](n2cnc3c(SCc4ccc(Cl)cc4Cl)ncnc32)[C@H](O)[C@@H]1O | - | Toxoplasma gondii | RH adenosine kinase-deficient | 5 µM | inhibition | - | 0%
Cc1cc2nc(C)c(C(=O)NCc3ccc(N4CCN(c5ccc(OC(F)(F)F)cc5)[C@@H](C)C4)c(F)c3)n2cc1Cl | - | Mycobacterium avium | - | 0.033 µM | inhibition | fluorescence | 85%
Cc1c(N)c(F)cc2c(=O)c(C(=O)O)cn(-c3cc(N)c(F)cc3F)c12 | - | Enterococcus faecium | W1418 | - | MIC | - | >64 µg/mL
CCc1nc2ccc(Cl)cn2c1C(=O)NCc1ccc(N2CCN(c3ccc(OC(F)(F)F)cc3)[C@@H](C)C2)c(F)c1F.Cl | - | Mycobacterium avium | - | 0.011 µM | inhibition | fluorescence | 85%
Nc1ncnc2c1ncn2[C@@H]1C=C[C@@H](O)[C@H]1O | CV-1 | Measles virus | - | - | EC50 | neutral red | 1 µg/mL
O=c1[nH]c(=O)n([C@@H]2O[C@H](CO)[C@@H](O)[C@@H]2O)cc1/C=C/Br | HELF | Varicella zoster virus | Asahikawa | 0.01 µg/mL | inhibition | plaque count | 100%
Cn1ncc(C#N)c1/N=c1\ssnc1Cl | - | Saccharomyces cerevisiae | ATCC26785 | - | MIC | - | 25 µg/mL
CCNc1c(F)cc2c(=O)c(C(=O)O)cn(-c3cc(N)c(F)cc3F)c2c1C | - | Enterococcus faecium | W1418 | - | MIC | - | 64 µg/mL
N#Cc1ncn(CCc2ccccc2)c1/N=c1\ssnc1Cl | - | Saccharomyces cerevisiae | ATCC26785 | - | MIC | - | 25 µg/mL
Cn1cc(C(=O)NCc2ccc(Cl)cc2)c(=O)c2cc(CN3CCOCC3)ccc21 | HFF | Varicella zoster virus | DN zoster isolate | 8.5 µM | inhibition | plaque count | 90%
CCCCCCCCCCCCCCCCCCCCCCOCC(C)(COCCCCCCCCCCCCCCCCCCCCCC)CO[C@]1(C(=O)O)C[C@H](OS(=O)(=O)O)[C@@H](NC(C)=O)[C@H]([C@H](OS(=O)(=O)O)[C@@H](COS(=O)(=O)O)OS(=O)(=O)O)O1 | MA-104 | Rotavirus | MO (serotype 3) | - | EC50 | plaque count | 2.2 µg/mL
CCc1nc2cc(Cl)ccn2c1C(=O)NCc1ccc(N2CCN(c3ccc(OC(F)(F)F)cc3)[C@@H](C)C2)c(F)c1 | - | Mycobacterium avium | - | 0.026 µM | inhibition | fluorescence | 85%
CCOC(=O)c1c(C)nc(NCCCNc2ccnc3cc(Cl)ccc23)nc1-c1ccccc1 | - | Cryptococcus gattii | L-28/02 | - | MIC99 | - | 8 µg/mL
Nc1ncnc2c1ncn2[C@@H]1C[C@H](N)[C@@H](O)[C@H]1O | CV-1 | Measles virus | Halonen | - | EC50 | cytopathic effect | 0.4 µg/mL
Nc1nc2c(ncn2COCCO)c(=O)[nH]1 | HELF | Varicella zoster virus | KANNO | 0.1 µg/mL | inhibition | plaque count | 11%
CCC(CC)[C@H](NC(C)=O)[C@@H]1[C@H](O)[C@@H](C(=O)O)C[C@H]1N=C(N)N | MDCK | Influenza A virus | Influenza A/Virginia/2/88R (H3N2) | - | EC50 | - | <0.01 µM
Oc1ccc(O)c(C=Nc2ccccc2O)c1 | - | Cryptococcus neoformans | 28JF | - | MIC99 | - | 11.3 µg/mL
CS[C@H]1C[C@@H](n2cnc3c(N)ncnc32)[C@H](O)[C@@H]1O | CV-1 | Measles virus | - | - | EC50 | neutral red | >100 µg/mL
O=c1[nH]c(=O)n([C@@H]2O[C@H](CO)[C@@H](O)[C@@H]2O)cc1/C=C/Cl | HELF | Varicella zoster virus | KANNO | 0.01 µg/mL | inhibition | plaque count | 100%

The first 2 rows once more:

SMILES	cell line	agent	strain or isolate	tested at	read-out	method	result
C=CCc1ccc(O)c(OC)c1	-	Candida tropicalis	2442	-	MIC90	turbidity	480 µg/mL
CC(=O)N[C@H]1[C@H]([C@H](O)[C@H](O)CO)OC(C(=O)O)=C[C@@H]1N=C(N)N	MDCK	Influenza A virus	Influenza A/Shandong/09/93 (H3N2)	-	EC50	-	0.5 µM